Reference: PubChem BioAssay AID624099 (ICCB-Longwood, 2012)

Assay: 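Host factors E2 relies on to silence an HPV18 LCR reporter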 (primary screen)
Cells: human C33A cervical carcinoma cells (HPV-negative) stably expressing BPV1 E2 and an HPV18 LCR luciferase reporter
Knock-down reagent: siRNA pool against human genes, 40 nM
Timing: 72 h
Read-out: 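HPV18 LCR reporter light per well, converted to plate-wise z-scores that exclude control wells, and averaged over triplicate plates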
Scale: mean z-score and z-score: higher = stronger reporter signal, weaker E2 silencing
Call rule: 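Mean z ≥ 2 together with z ≥ 2 in two or more of the three replicates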
The whole screen tested about 21,000 reagents; below is a part drawn at random. Over the whole deposit, 497 (2.4%) got an active call. 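Higher z means weaker E2 silencing; only reporter increases were scored, and knock-downs that hurt cell survival may mask genuine repressor factors.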 Unmarked entries are inactive. Reagents against one gene are numbered here.

BTNL3 (butyrophilin like 3)
- mean z-score: 0.58
- z-score, replicate A: 0.72
- z-score, replicate B: 0.7
- z-score, replicate C: 0.32

MOGAT2 (monoacylglycerol O-acyltransferase 2)
- mean z-score: -0.74
- z-score, replicate A: -0.74
- z-score, replicate B: -0.76
- z-score, replicate C: -0.73

DNAH14 (dynein axonemal heavy chain 14) #1
- mean z-score: -0.65
- z-score, replicate A: -0.56
- z-score, replicate B: -0.58
- z-score, replicate C: -0.8

DNAH14 (dynein axonemal heavy chain 14) #2
- mean z-score: -1.33
- z-score, replicate A: -0.89
- z-score, replicate B: -1.36
- z-score, replicate C: -1.74

LILRB5 (leukocyte immunoglobulin like receptor B5)
- mean z-score: -0.22
- z-score, replicate A: -0.21
- z-score, replicate B: -0.36
- z-score, replicate C: -0.1

CENPV (centromere protein V)
- mean z-score: 0.89
- z-score, replicate A: 0.99
- z-score, replicate B: 1.27
- z-score, replicate C: 0.41

NTAN1 (N-terminal asparagine amidase)
- mean z-score: 0.21
- z-score, replicate A: 0.41
- z-score, replicate B: -0.13
- z-score, replicate C: 0.36

FN3KRP (fructosamine 3 kinase related protein)
- mean z-score: -1.21
- z-score, replicate A: -1.27
- z-score, replicate B: -1.11
- z-score, replicate C: -1.26

TNNC1 (troponin C1, slow skeletal and cardiac type)
- mean z-score: -0.37
- z-score, replicate A: -0.88
- z-score, replicate B: 0.09
- z-score, replicate C: -0.32

ITPR3 (inositol 1,4,5-trisphosphate receptor type 3)
- mean z-score: -1.28
- z-score, replicate A: -1.55
- z-score, replicate B: -1.33
- z-score, replicate C: -0.95

HOXD13 (homeobox D13)
- mean z-score: 0.09
- z-score, replicate A: -0.04
- z-score, replicate B: 0.34
- z-score, replicate C: -0.03

Copied from above for reference:
TNNC1 (troponin C1, slow skeletal and cardiac type)
- mean z-score: -0.37
- z-score, replicate A: -0.88
- z-score, replicate B: 0.09
- z-score, replicate C: -0.32

ITPR3 (inositol 1,4,5-trisphosphate receptor type 3)
- mean z-score: -1.28
- z-score, replicate A: -1.55
- z-score, replicate B: -1.33
- z-score, replicate C: -0.95

HOXD13 (homeobox D13)
- mean z-score: 0.09
- z-score, replicate A: -0.04
- z-score, replicate B: 0.34
- z-score, replicate C: -0.03

The listing continues:
TNS1 (tensin 1)
- mean z-score: 1.72
- z-score, replicate A: 2.07
- z-score, replicate B: 1.2
- z-score, replicate C: 1.89

DENND10 (DENN domain containing 10)
- mean z-score: -0.15
- z-score, replicate A: -0.42
- z-score, replicate B: 0.04
- z-score, replicate C: -0.07

SLC6A16
- mean z-score: 1.05
- z-score, replicate A: 0.7
- z-score, replicate B: 0.9
- z-score, replicate C: 1.55

KPNB1 (karyopherin subunit beta 1)
- mean z-score: -1.88
- z-score, replicate A: -1.78
- z-score, replicate B: -2.07
- z-score, replicate C: -1.77

LOC389757 (retired record)
- mean z-score: -1
- z-score, replicate A: -1.05
- z-score, replicate B: -1.01
- z-score, replicate C: -0.95

MSX2 (msh homeobox 2)
- mean z-score: -0.14
- z-score, replicate A: -0.38
- z-score, replicate B: 0.07
- z-score, replicate C: -0.12

LOC400832 (retired record)
- mean z-score: 1.2
- z-score, replicate A: 1.58
- z-score, replicate B: 1.08
- z-score, replicate C: 0.95

LOC393078 (retired record) #1
- mean z-score: -0.02
- z-score, replicate A: 0.05
- z-score, replicate B: -0.19
- z-score, replicate C: 0.08

LOC393078 (retired record) #2
- mean z-score: -0.35
- z-score, replicate A: -0.29
- z-score, replicate B: -0.5
- z-score, replicate C: -0.24

CPD (carboxypeptidase D)
- mean z-score: 3.33 (active)
- z-score, replicate A: 2.88
- z-score, replicate B: 3.35
- z-score, replicate C: 3.77

ZNF474 (zinc finger protein 474)
- mean z-score: 0.36
- z-score, replicate A: 0.14
- z-score, replicate B: 0.71
- z-score, replicate C: 0.22

PEX12 (peroxisomal biogenesis factor 12)
- mean z-score: 0.78
- z-score, replicate A: 0.77
- z-score, replicate B: 0.79
- z-score, replicate C: 0.78

LOC387937 (retired record)
- mean z-score: 0.68
- z-score, replicate A: 0.58
- z-score, replicate B: 0.68
- z-score, replicate C: 0.77

GSAP (gamma-secretase activating protein) #1
- mean z-score: -0.2
- z-score, replicate A: -0.3
- z-score, replicate B: 0.1
- z-score, replicate C: -0.4

GSAP (gamma-secretase activating protein) #2
- mean z-score: 0.31
- z-score, replicate A: 0.26
- z-score, replicate B: 0.22
- z-score, replicate C: 0.45

DNAJA4 (DnaJ heat shock protein family (Hsp40) member A4)
- mean z-score: 0.89
- z-score, replicate A: 0.93
- z-score, replicate B: 0.81
- z-score, replicate C: 0.92
